PubChem BioAssay AID624099 – ICCB-Longwood, 2012
Assay: 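Host factors E2 relies on to silence an HPV18 LCR reporter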 (primary screen). Cell system: human C33A cervical carcinoma cells (HPV-negative) stably expressing BPV1 E2 and an HPV18 LCR luciferase reporter. Reagent: siRNA pool against human genes, 40 nM. Time to read-out: 72 h. Measured: 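HPV18 LCR reporter light per well, converted to plate-wise z-scores that exclude control wells, and averaged over triplicate plates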. Scale: mean z-score and z-score: higher = stronger reporter signal, weaker E2 silencing. Rule for the call: 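Hit if mean z-score reaches 2 and two or more of three replicate z-scores also reach 2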.
Shown is an unselected part of about 21,000 reagents. Over the whole deposit, 497 (2.4%) are marked active. 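Higher z means weaker E2 silencing; only reporter increases were scored, and knock-downs that hurt cell survival may mask genuine repressor factors.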 Entries without a mark were called inactive. Reagent sequences are not shown.

| target gene | mean z-score | z-score, replicate A | z-score, replicate B | z-score, replicate C |
| --- | --- | --- | --- | --- |
| IDI1 | -0.44 | -0.45 | -0.29 | -0.59 |
| C8orf33 | 1.25 | 1.62 | 0.99 | 1.15 |
| ZNF417 | 0.16 | -0.42 | -0.09 | 1.01 |
| CRMA | 0.15 | -0.09 | 0.24 | 0.29 |
| LINC01913 | -0.57 | -0.35 | -0.56 | -0.78 |
| TBL1X | -0.25 | 0.1 | -0.27 | -0.58 |
| SPATA2L | 0.29 | 0.4 | 0.22 | 0.25 |
| TNFSF11 | -0.61 | -0.66 | -0.64 | -0.53 |
| DGKE | -0.59 | -0.75 | -0.14 | -0.9 |
| PKN1 | 0.31 | 0.25 | 0.17 | 0.51 |
| POC1A | 0.39 | 0.14 | 0.33 | 0.7 |
| RPS13 | -1.76 | -1.84 | -1.73 | -1.72 |
| ALPI | 0.74 | 0.81 | 0.44 | 0.98 |
| NEDD8 | -0.75 | -0.67 | -0.84 | -0.73 |
| PRKAA2 | -0.26 | -0.31 | 0 | -0.46 |
| LINC02249 | 1.16 | 1.37 | 1.1 | 1.03 |
| CACNB4 | -1.87 | -2.02 | -1.76 | -1.81 |
| MRPL14 | 0.06 | 0.27 | 0.12 | -0.2 |
| RHOA | -1.85 | -1.89 | -1.88 | -1.79 |
| PHF21B | 0.6 | 0.75 | 0.53 | 0.5 |
| AANAT | -2.59 | -2.56 | -2.73 | -2.48 |
| GGA3 | 0.71 | 0.48 | 1.38 | 0.29 |
| ABCC2 | 1.31 | 1.24 | 1.24 | 1.44 |
| SEH1L | -0.75 | -0.59 | -0.97 | -0.7 |
| ADGRG6 | 0.35 | 0.58 | 0.35 | 0.12 |
| TRPM8 | -0.16 | 0.11 | -0.3 | -0.29 |
| ZNF692 | -0.06 | 0.03 | -0.09 | -0.11 |
| ANKRD13A | 0.12 | -0.02 | 0.01 | 0.37 |
| CRYGB | 2.4 (active) | 2.22 | 2.68 | 2.3 |
| STYX | 1.06 | 1.11 | 0.76 | 1.32 |
| VPS72 | -0.03 | 0.07 | -0.2 | 0.03 |
| ANKRD35 | 0.93 | 1.5 | 1.06 | 0.24 |
| LOC401915 (retired record) | 0.39 | 0.35 | 0.63 | 0.18 |
| GATA3-AS1 | -0.23 | -0.18 | -0.33 | -0.18 |
| SMTNL1 | 0.08 | 0.06 | 0.07 | 0.12 |
| XRCC2 | -0.33 | 0.01 | -0.2 | -0.81 |
| MAP3K4 | 0.86 | 1.04 | 0.53 | 1.02 |
| COX20 | 0.73 | 0.64 | 0.84 | 0.7 |
| JAM2 | -0.92 | -0.53 | -1.06 | -1.16 |
